These results are taken from paper PMC5118987 (Antimicrobial Agents and Chemotherapy, 2016).

This data set deals with HIV-1 IIIb. To be noted: MT-4 cells, high-density dose response.

Several values for one entry are separate records, joined by “and”; a condition that tells them apart may be missing. Identical values can stand only once.

For orientation: Hill slope means the slope factor of the fitted curve. On to `O=C(NCc1c(F)cc(F)cc1F)c1cn2c(c(O)c1=O)C(=O)N1[C@H]3CC[C@H](C3)O[C@@H]1C2` [BIC, Bictegravir], for which the Hill slope is ~2.1 and 2.1 ± 0.3. Compound `C[C@@H]1CCO[C@H]2Cn3cc(C(=O)NCc4ccc(F)cc4F)c(=O)c(O)c3C(=O)N12` [DTG, Dolutegravir] yielded a Hill slope of 2.0 ± 0.3.
